Results of unrelated studies side by side (data: NIAID ChemDB).

Shared fields: cytotoxicity tests; endpoint: CC50

An empty or dashed field is not shown. Conditions beyond the fields shown may differ between rows. CCn: concentration that lowers growth or viability of the cells by n%.

SMILES	read by	cells	value
CCOC(=O)c1ccnc2c1c(O)cc(=O)n2O		HeLa	<100 µM
Cc1nc(-c2ccccc2)sc1NC(=O)NCCc1ccc2c(n1)NCCC2		PBMC	7.4 µM
NC(=S)Nc1cccc(OCCCCCOc2ccc(-n3ccnc3)cc2)c1	MTS	Ava5-EG(delta4AB)SEAP	>1 µM
CCOC(=O)C1=C(CN2CC(F)(F)[C@@H]3[C@H]2CON3C[C@H](O)C(C)(C)C(=O)O)NC(c2nccs2)=N[C@H]1c1ccc(F)c(F)c1Cl	WST / absorbance	HepG2.2.15	100 µM
O=C(CCc1ccc(Cl)c(Cl)c1)NCCc1ccc2c(n1)NCCC2		PBMC	50 µM
CCOC(=O)C1=C(CN2CC(F)(F)[C@@H]3[C@H]2CON3C[C@H](O)C(C)(C)C(=O)O)NC(c2nccs2)=N[C@H]1c1cccc(F)c1C	WST / absorbance	HepG2.2.15	100 µM
CN(C)C(=O)CNc1cccc(-c2cc(=O)n(O)c3ncccc23)c1		HeLa	<100 µM
NC(=S)Nc1cccc(OCCCCOc2cccc3ccccc23)c1	MTS	Ava5-EG(delta4AB)SEAP	>1 µM
CC(C)N(Cc1cccc(OCCCCCC(=O)OC(=O)O)c1)C(=O)c1ccc(-c2ccc3cc[nH]c3c2)cc1		BJ	>20 µM
NC(=S)Nc1cccc(OCCCCCOc2ccccc2-c2ccc(Cl)cc2)c1	MTS	Ava5-EG(delta4AB)SEAP	>1 µM
CCOC(=O)CCCCCOc1cccc(CN(C(=O)c2ccccc2)C(C)C)c1		BJ	>20 µM
CCOC(=O)C1=C(CN2CC(F)(F)[C@H]3[C@@H]2CCN3C[C@](C)(O)C(=O)O)NC(c2nc(C)cs2)=N[C@H]1c1cccc(F)c1C	WST / absorbance	HepG2.2.15	>50 µM
CC(C)N(Cc1cccc(OCCCCCC(=O)OC(=O)O)c1)C(=O)c1ccc(-c2cccc(-c3ccccc3)c2)cc1		BJ	>20 µM
NC(=S)Nc1cccc(NCCCCCCCCc2ccccc2)c1	MTS	Ava5-EG(delta4AB)SEAP	>1 µM
O=C(NCCc1ccc2c(n1)NCCC2)Nc1cc(F)cc(C(F)(F)F)c1		PBMC	6 µM
CC(=O)N1CCN(c2cccc(-c3cc(=O)n(O)c4ncccc34)c2)CC1		HeLa	<100 µM
O=C(NCCc1ccc2c(n1)NCCC2)NC1CCCOC1		PBMC	50 µM
COC(=O)C1=C(CN2CC(F)(F)[C@H]3[C@@H]2CCN3C[C@@](C)(O)C(=O)O)NC(c2nccs2)=N[C@H]1c1cccc(F)c1F	WST / absorbance	HepG2.2.15	>100 µM
CC(C)N(Cc1cccc(OCCCCCC(=O)OC(=O)O)c1)C(=O)c1ccc(-c2cccc(NC=O)c2)cc1		BJ	>20 µM
NC(=S)Nc1cccc(OCCCCCOc2ccc(C(F)(F)F)cc2)c1	MTS	Ava5-EG(delta4AB)SEAP	>1 µM
O=c1cc(NCc2ccccc2Cl)c2cccnc2n1O		HeLa	<100 µM
O=C(NCCc1ccc2c(n1)NCCC2)Nc1ccc(F)cc1F		PBMC	50 µM
NC(=S)Nc1cccc(OCCCCCCCOc2ccccc2)c1	MTS	Ava5-EG(delta4AB)SEAP	>1 µM

Again, the opening 3 rows:

CCOC(=O)c1ccnc2c1c(O)cc(=O)n2O ; cells: HeLa ; value: <100 µM
Cc1nc(-c2ccccc2)sc1NC(=O)NCCc1ccc2c(n1)NCCC2 ; cells: PBMC ; value: 7.4 µM
NC(=S)Nc1cccc(OCCCCCOc2ccc(-n3ccnc3)cc2)c1 ; read by: MTS ; cells: Ava5-EG(delta4AB)SEAP ; value: >1 µM